PubChem BioAssay AID504761, Drosophila RNAi Screening Center, 2011

- Assay: 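Insect host genes that dengue virus relies on to spread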 (primary screen)
- Cells: D.Mel-2 cells from Drosophila
- Knock-down reagent: long dsRNA against Drosophila genes
- Treatment: infection with dengue virus type 2; dose and infection time not stated
- Measured: 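Cells stained for dengue envelope protein and imaged; percent of infected cells per well on duplicate plates, ranked by infection, with stained nuclei counted for cell number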
- Direction: infection score: higher = more virus-infected cells; cell count: higher = more cells in the well
- Call rule: 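Very low infection ranking in both replicate wells (chance probability at most 0.065), then a retest showing infection dropped 1.5-fold or more at p below 0.05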
- Meaning of the calls: active = confirmed: knock-down lowers infection; inactive = not picked or not confirmed
The deposit covers about 22,000 reagents; below is an unselected part of those with a known target gene and a result. Over the whole deposit, 116 (0.52%) got an active call. 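Calls depend on retest data that are not deposited; infection was ranked per plate without normalising between plates; the unit of the infection score is not given.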 The raw values are shown without normalisation. A plus sign joins genes that one reagent is predicted to hit. Not given: the amount of reagent, the time to read-out.

| gene | amplicon | infection score, replicate 1 | infection score, replicate 2 | cell count, replicate 1 | cell count, replicate 2 | call |
| --- | --- | --- | --- | --- | --- | --- |
| CG15650 | DRSC04241 | 3.37 | 5.47 | 6703 | 6872 | inactive |
| CG30280 | DRSC21761 | 15 | 17.9 | 2181 | 5040 | inactive |
| Acp24A4 (Accessory gland protein 24A4) | DRSC22352 | 1.82 | 4.25 | 6523 | 6773 | inactive |
| IPIP (Inositol phosphatase interacting protein) | DRSC02164 | 5.49 | 6.58 | 6172 | 6432 | inactive |
| IPIP (Inositol phosphatase interacting protein) | DRSC27480 | 24.9 | 16.7 | 5556 | 3077 | inactive |
| CG13744 | DRSC06415 | 9.29 | 19.9 | 6586 | 6071 | inactive |
| Sodh1 (Sorbitol dehydrogenase 1) | DRSC12605 | 7.32 | 5.48 | 5930 | 6336 | inactive |
| Sodh1 (Sorbitol dehydrogenase 1) | DRSC26280 | 9.12 | 2.37 | 3355 | 5610 | inactive |
| spidey | DRSC17932 | 4.73 | 1.7 | 6137 | 6194 | inactive |
| spidey | DRSC30107 | 3.07 | 9.49 | 6641 | 5997 | inactive |
| CG13674 | DRSC10033 | 1.04 | 1.63 | 5876 | 6364 | inactive |
| CG13674 | DRSC27828 | 36.3 | 9.42 | 6013 | 6390 | inactive |
| Hasp (Hig-anchoring scaffold protein) | DRSC02022 | 8.68 | 29.8 | 6842 | 5930 | inactive |
| bru1 (bruno 1) | DRSC01234 | – | 4.56 | 1219 | 5020 | inactive |
| bru1 (bruno 1) | DRSC01236 | 0.52 | 1.13 | 5603 | 5565 | inactive |
| bru1 (bruno 1) | DRSC01237 | 4.19 | 2 | 6587 | 6641 | inactive |
| bru1 (bruno 1) | DRSC01238 | 5.2 | 2.51 | 6225 | 6527 | inactive |
| bru1 (bruno 1) | DRSC03485 | 12.4 | 12.2 | 6625 | 6441 | inactive |
| CG10793 | DRSC17760 | 13.1 | 1.42 | 6215 | 6752 | inactive |
| Tapdelta (Translocon-associated protein delta) | DRSC05946 | 11.2 | 16.6 | 6489 | 6602 | inactive |
| CG11674 | DRSC19414 | 4.94 | 2.24 | 6457 | 6461 | inactive |
| RunxA (Runt related A) | DRSC20498 | 2.99 | – | 4014 | – | inactive |
| RunxA (Runt related A) | DRSC20524 | 11.4 | 27.5 | 507 | 4439 | inactive |
| RunxA (Runt related A) | DRSC21915 | 6.8 | 15 | 5868 | 5504 | inactive |
| RunxA (Runt related A) | DRSC25225 | 1.65 | 0.99 | 5985 | 6290 | inactive |
| RunxA (Runt related A) | DRSC27250 | 15.6 | 11.8 | 6689 | 6317 | inactive |
| CG15445 | DRSC20517 | 9.87 | 6.48 | 6729 | 6647 | inactive |
| CG3309 | DRSC18301 | 1.61 | 4.54 | 6588 | 6538 | inactive |
| CG3309 | DRSC26197 | 19.1 | 6.81 | 5443 | 5818 | inactive |
| CG42296 | DRSC00394 | 20 | 8.27 | 6911 | 6715 | inactive |
| CG8958 | DRSC20134 | 10.4 | 3.5 | 6539 | 6626 | inactive |
| CG8958 | DRSC29479 | 16.2 | 6.27 | 4939 | 2056 | inactive |
| Tep1 (Thioester-containing protein 1) | DRSC03450 | 14.9 | 2.69 | 5673 | 6761 | inactive |
| Tep1 (Thioester-containing protein 1) | DRSC26163 | 19.1 | 5.29 | 5918 | 6257 | inactive |
| Gr22b (Gustatory receptor 22b) | DRSC20911 | 1.19 | – | 6722 | – | inactive |
| l(2)k09848 (lethal (2) k09848) | DRSC04894 | 26.6 | 24.8 | 5611 | 5616 | inactive |
| endos (endosulfine) | DRSC10658 | 19.9 | 22.1 | 4636 | 4012 | inactive |
| endos (endosulfine) | DRSC29476 | 9.85 | – | 4377 | 343 | inactive |
| lz (lozenge) | DRSC18790 | 0.32 | 1.02 | 6501 | 7131 | active |
| lz (lozenge) | DRSC22302 | 0.67 | 2.18 | 6153 | 6562 | inactive |
| lz (lozenge) | DRSC25157 | 9.7 | 2.21 | 6250 | 6201 | inactive |
| CG15431 | DRSC00446 | 6.74 | 2.37 | 6678 | 6870 | inactive |
| CG15431 | DRSC29532 | 13.2 | 3.7 | 5218 | 784 | inactive |
| tw (twisted) | DRSC18537 | 7.62 | 16.4 | 5815 | 5631 | inactive |
| CG18528 | DRSC15340 | 0.74 | 5.31 | 404 | 6838 | inactive |
| spict (spichthyin) | DRSC02157 | 17.9 | 10.7 | 6210 | 6513 | inactive |
| spict (spichthyin) | DRSC28072 | 18 | 3.07 | 6462 | 6668 | inactive |
| Gr22c (Gustatory receptor 22c) | DRSC22081 | 1.39 | 0.98 | 6694 | 6409 | inactive |
| Gr22c (Gustatory receptor 22c) | DRSC29715 | 2.84 | 4.63 | 6375 | 5706 | inactive |
| CG14659 | DRSC12245 | 5.52 | 8.08 | 6757 | 6806 | inactive |
| Nfs1 (Nfs1 cysteine desulfurase) | DRSC02154 | 21.3 | 16.9 | 5994 | 6328 | inactive |
| CG5116 | DRSC15720 | 4.69 | 8.61 | 6969 | 6297 | inactive |
| DIP-iota (Dpr-interacting protein iota) | DRSC02140 | 7.9 | 4.67 | 6011 | 6446 | inactive |
| DIP-iota (Dpr-interacting protein iota) | DRSC23965 | 4.85 | 2.71 | 6221 | 6233 | inactive |
| Tpr2 (Tetratricopeptide repeat protein 2) | DRSC03461 | 41.1 | 22.1 | 5604 | 6736 | inactive |
| CG33061 | DRSC09938 | 1.03 | 3.77 | 5629 | 5808 | inactive |
| CG33061 | DRSC22897 | 0.98 | 6.25 | 5943 | 5821 | inactive |
| NANS (N-acetylneuraminic acid synthase) | DRSC15743 | 6.07 | 4.63 | 5222 | 6002 | inactive |
| NANS (N-acetylneuraminic acid synthase) | DRSC27626 | 2.45 | 18.6 | 6600 | 2927 | inactive |
| Tsp42Eg (Tetraspanin 42Eg) | DRSC06112 | 14.4 | 27.9 | 6712 | 5295 | inactive |
| CG8046 | DRSC07059 | 6.58 | 7.42 | 6672 | 6320 | inactive |
| CG14042 + SP555 | DRSC02367 | 5.33 | 3.82 | 5944 | 6592 | inactive |
| CG14042 + SP555 | DRSC03428 | 3.27 | 21.8 | 6633 | 6310 | inactive |
| Vha16-5 (Vacuolar H[+] ATPase 16kD subunit 5) | DRSC02986 | 1.04 | 1.06 | 6470 | 6332 | inactive |
| Cpr97Eb (Cuticular protein 97Eb) | DRSC15123 | 5.61 | 4.98 | 6293 | 6753 | inactive |
| CG30002 | DRSC05182 | 4.7 | 7.84 | 6112 | 6221 | inactive |
| CG30002 | DRSC24738 | 4.17 | 7.58 | 6900 | 6862 | inactive |
| abs (abstrakt) | DRSC12372 | 13.3 | 13.3 | 3385 | 2119 | inactive |
| alpha-Man-Ic (alpha-Mannosidase class I c) | DRSC21674 | 1.74 | 2.82 | 6278 | 6770 | inactive |
| alpha-Man-Ic (alpha-Mannosidase class I c) | DRSC27509 | 4.93 | 7.02 | 6434 | 6793 | inactive |
| btz (barentsz) | DRSC14566 | 10.1 | 14.2 | 6408 | 6494 | inactive |
| btz (barentsz) | DRSC23613 | 9.94 | 17 | 5402 | 5730 | inactive |
| kmg (kumgang) | DRSC02829 | 7.52 | 12 | 5800 | 6139 | inactive |
| CG1513 | DRSC05194 | 0.16 | 1.43 | 5802 | 5330 | inactive |
| CG1513 | DRSC06553 | 5.09 | 8.04 | 6284 | 5063 | inactive |
| CG1513 | DRSC06554 | 4.4 | 6.96 | 6480 | 6510 | inactive |

Entries listed above called active, once more:
| gene | amplicon | infection score, replicate 1 | infection score, replicate 2 | cell count, replicate 1 | cell count, replicate 2 | call |
| --- | --- | --- | --- | --- | --- | --- |
| lz (lozenge) | DRSC18790 | 0.32 | 1.02 | 6501 | 7131 | active |
